Compound potency records, mixed from different reports. Data source: NIAID ChemDB in PubChem.

Shared fields: tests in culture; species: Candida albicans; measure: MIC

Blank or dashed fields: not listed here. Conditions beyond the fields shown may differ between rows.

| structure | strain | method | value |
|---|---|---|---|
| CC(=O)CCCNC(=S)Nc1ccccc1 | ATCC2094 | - | >128 µg/mL |
| CN[C@@H]1[C@H](O)[C@@H](O)[C@H](O[C@H]2c3cc(C)c(C(=O)N[C@H](C)C(=O)OC)c(O)c3-c3c(cc4c(c3O)C(=O)c3cc(OC)cc(O)c3C4=O)[C@@H]2O)O[C@@H]1C | A9540 | - | >100 µg/mL |
| O=S(CCO)SCc1ccccc1 | - | - | 16 µg/mL |
| COC(=O)CCNC(=S)Nc1ccc(OC)cc1 | ATCC2094 | - | 5 µg/mL |
| C[C@@H]1[C@H](O)[C@@H](C)/C=C/C=C/C=C/C=C/C=C/C=C/C=C/[C@H](O[C@@H]2O[C@H](C)[C@@H](O)[C@H](N)[C@@H]2O)C[C@@H]2O[C@](O)(C[C@@H](O)C[C@@H](O)[C@H](O)CC[C@@H](O)C[C@@H](O)CC(=O)O[C@H]1C)C[C@H](O)[C@H]2C(=O)O | SC5314 | resazurin | 0.63 µg/mL |
| O=S(Cc1ccccc1)SCc1ccccc1 | - | - | 16 µg/mL |
| CCOC(=O)CCNC(=S)Nc1ccccc1 | ATCC2094 | - | 33 µg/mL |
| CCCCCSc1nc2ccc(N)cc2s1 | IEM 49/64 | - | 25 µg/mL |
| COc1cccc(/C=C/C(=O)c2ccc(Br)cc2)c1OC | ATCC 10231 | - | >50 µg/mL |
| C[C@@H](c1nc(-c2ccc(C#N)cc2)cs1)[C@](O)(Cn1cnnc1)c1ccc(F)cc1F | Isogenic isolate 8 (25X) | - | ≤0.008 µg/mL |
| C[C@@H]1C[C@@H]([C@H](O)CC2CC(=O)NC(=O)C2)C(=O)[C@@H](C)C1 | Isolate 3 | - | 0.27 µM |
| COc1cc(O)c2c(c1)C(=O)c1c(cc3c(c1O)-c1c(cc(C)c(C(=O)NC(CO)C(=O)O)c1O)[C@H](OC1OC(C)C(O)C(OC4OCC(O)C(O)C4O)C1O)C3O)C2=O | Juntendo 83-2-14 | - | 3.1 µg/mL |
| O=S(CCO)SCCO | - | - | >512 µg/mL |
| COc1ccc(NC(=S)NCCC(=O)OC(C)C)cc1 | ATCC2094 | - | >128 µg/mL |
| Nc1ccccc1/C=N/NC(=O)c1ccncc1 | MTCC 8184 | - | 12.5 µg/mL |
| COc1cccc(C(=O)/C=C/c2cc3ccccc3cc2OC)c1 | ATCC 10231 | - | >50 µg/mL |
| CC(=O)CCNC(=S)Nc1ccccc1 | ATCC2094 | - | >128 µg/mL |
| C[C@@]12CCC[C@]3(C)C4=CC(=O)OC(O)[C@]45O[C@@H]5C(OC1=O)[C@@H]23 | ATCC 90028 | - | >64 µg/mL |
| C=C[C@]1(C)C=C2C(=O)c3c(NC=O)cccc3C(C)(C)[C@H]2C[C@H]1O | - | - | >100 µM |
| Cc1ccc(-n2[se]c3ccccc3c2=O)nc1 | - | - | >500 µg/mL |
| CCN(CC)Cc1cccc(/C=N/NC(=O)c2ccncc2)c1N | MTCC 8184 | - | 12.5 µg/mL |
| CC[C@H]1OC(=O)C=C2[C@@]13O[C@@H]3C1OC(=O)[C@@]3(C)CCC[C@@]2(C)[C@@H]13 | ATCC 90029 | - | 16 µg/mL |
| CCCCCCCCC[C@@H](O)[C@H](C)N | MTCC 7315 | - | 9.9 µM |
| O=C/C=C/c1ccccc1 | STD no 126/09 | - | 100 µg/mL |
| CC(=O)CCCNC(=S)Nc1ccc([N+](=O)[O-])cc1 | ATCC2094 | - | 10 µg/mL |
| c1ccc(CSSSCc2ccccc2)cc1 | - | - | 16 µg/mL |
| CCOC(=O)CCNC(=S)Nc1ccc(OC)c(OC)c1 | ATCC2094 | - | 70 µg/mL |
| COc1cc2cc(/C=C/C(=O)c3ccc(Br)cc3)c(Cl)nc2cc1OC | ATCC 10231 | - | >50 µg/mL |
| COc1cccc(Nc2ccc3c(C)c(C)sc3c2C)c1 | CECT 1394 | - | 0.05 µg/mL |
| O=C(NCc1c(Br)c(O)c(O)c(Br)c1Br)NCc1c(Br)c(O)c(O)c(Br)c1Br | ATCC 10231 | - | 10 µg/mL |
| COc1cccc(/C=C/C(=O)c2ccccc2)c1 | ATCC 10231 | - | >50 µg/mL |
| O=c1[nH][se]c2ccccc12 | - | - | 256 µg/mL |
| CC1(C)S[C@@H]2[C@H](NC(=O)[C@H](N)c3ccccc3)C(=O)N2[C@H]1C(=O)O | - | - | 0.12 µM |
| CCCn1[se]c2ncccc2c1=O | - | - | 512 µg/mL |
| COc1ccc(/C=C/C(=O)c2ccccc2)cc1 | ATCC 10231 | - | >50 µg/mL |
| CN1CCN(Cc2cccc(/C=N/NC(=O)c3ccncc3)c2N)CC1 | MTCC 8184 | - | 12.5 µg/mL |
| CC(C)(C)n1[se]c2ncccc2c1=O | - | - | >500 µg/mL |
| COC(=O)CCNC(=S)NC1COOc2ccccc21 | ATCC2094 | - | >128 µg/mL |
| COc1cc(O)c2c(c1)C(=O)c1c(cc3c(c1O)-c1c(cc(C)c(C(=O)N[C@H](C)C(=O)O)c1O)[C@H](O)[C@H]3O)C2=O | A9540 | - | >100 µg/mL |
| C[n+]1cccc(-n2[se]c3ccccc3c2=O)c1 | - | - | >500 µg/mL |
| Clc1ccc(COC(Cn2ccnc2)c2ccc(Cl)cc2Cl)cc1 | IEM 49/64 | - | 5 µg/mL |
| O=c1c2ccccc2[se]n1-c1cccnc1 | - | - | >500 µg/mL |
| CCC(C)CC(C)CCCCCCCCC(=O)N[C@H]1C[C@@H](O)[C@H](NCCN)NC(=O)[C@@H]2[C@@H](O)CCN2C(=O)[C@H]([C@H](O)CCN)NC(=O)[C@H]([C@H](O)[C@@H](O)c2ccc(O)cc2)NC(=O)[C@@H]2C[C@@H](O)CN2C(=O)[C@H]([C@@H](C)O)NC1=O | DPL1000 | resazurin | 2 µg/mL |
| O=c1c2cccnc2[se]n1N(c1ccccc1)c1cc(Cl)ccn1 | - | - | >500 µg/mL |
| CCC(C)(C)c1ccc(CC(C)CN2C[C@@H](C)O[C@@H](C)C2)cc1 | IEM 49/64 | - | 5 µg/mL |
| O=C(/C=C/c1cc2ccccc2nc1Cl)c1ccccc1 | ATCC 10231 | - | >50 µg/mL |
| C[C@@H]1[C@H](O)[C@@H](C)/C=C/C=C/CC/C=C/C=C/C=C/C=C/C(O[C@H]2O[C@H](C)[C@@H](O)[C@H](N)[C@@H]2O)CC2O[C@](O)(CC(O)C(O)CCC(O)CC(O)CC(O)CC(=O)O[C@H]1C)CC(O)C2C(=O)O | MTCC 8184 | - | 0.25 µg/mL |
| CCOC(=O)[C@@H](C)NC(=O)c1c(C)cc2c(c1O)-c1c(cc3c(c1O)C(=O)c1cc(OC)cc(O)c1C3=O)[C@H](O)[C@H]2O[C@@H]1O[C@H](C)[C@H](NC)[C@H](O[C@@H]2OC[C@@H](O)[C@H](O)[C@H]2O)[C@H]1O | A9540 | - | >100 µg/mL |
| OCCSSSCCO | - | - | 8 µg/mL |
| Cc1sc2c(C)c3[nH]c4ccccc4c3cc2c1C | CECT 1394 | - | 0.05 µg/mL |

The first 7 rows once more:

structure,strain,method,value
CC(=O)CCCNC(=S)Nc1ccccc1,ATCC2094,-,>128 µg/mL
CN[C@@H]1[C@H](O)[C@@H](O)[C@H](O[C@H]2c3cc(C)c(C(=O)N[C@H](C)C(=O)OC)c(O)c3-c3c(cc4c(c3O)C(=O)c3cc(OC)cc(O)c3C4=O)[C@@H]2O)O[C@@H]1C,A9540,-,>100 µg/mL
O=S(CCO)SCc1ccccc1,-,-,16 µg/mL
COC(=O)CCNC(=S)Nc1ccc(OC)cc1,ATCC2094,-,5 µg/mL
C[C@@H]1[C@H](O)[C@@H](C)/C=C/C=C/C=C/C=C/C=C/C=C/C=C/[C@H](O[C@@H]2O[C@H](C)[C@@H](O)[C@H](N)[C@@H]2O)C[C@@H]2O[C@](O)(C[C@@H](O)C[C@@H](O)[C@H](O)CC[C@@H](O)C[C@@H](O)CC(=O)O[C@H]1C)C[C@H](O)[C@H]2C(=O)O,SC5314,resazurin,0.63 µg/mL
O=S(Cc1ccccc1)SCc1ccccc1,-,-,16 µg/mL
CCOC(=O)CCNC(=S)Nc1ccccc1,ATCC2094,-,33 µg/mL